{"source": "paper PMC5286426", "about": "“The Calcium-Dependent Switch Helix of L-Plastin Regulates Actin Bundling” (Scientific Reports, 2017)", "target": "L-plastin EF construct (EF-hand headpiece domain, H5 region omitted) (human)", "assay": "SPR", "data": [{"substance": "melittin (cytotoxic peptide from bee venom) (from UniProt P01501 44-70)", "values": [{"measurement": "Kd", "value": 158, "unit": "nM"}]}]}
